Positions that govern dimerization of the HIV-1 5' RNA

Source: Ye et al. 2022 (doi:10.1038/s41594-022-00746-2), supplementary data.

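Mutant RNA libraries with 1G, 2G or 3G starts, with or without cap, were folded at 37 °C for 30 min. High salt was 300 mM KCl and 5 mM MgCl2, low salt 40 mM KCl and 0.1 mM MgCl2; monomer and dimer were parted on a native gel. Kdimer compares mutation frequencies in monomer and dimer, corrected for sequencing errors.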

Sequence of the HIV-1 NL4-3 5' RNA, positions 1 to 437, as numbered in the source:
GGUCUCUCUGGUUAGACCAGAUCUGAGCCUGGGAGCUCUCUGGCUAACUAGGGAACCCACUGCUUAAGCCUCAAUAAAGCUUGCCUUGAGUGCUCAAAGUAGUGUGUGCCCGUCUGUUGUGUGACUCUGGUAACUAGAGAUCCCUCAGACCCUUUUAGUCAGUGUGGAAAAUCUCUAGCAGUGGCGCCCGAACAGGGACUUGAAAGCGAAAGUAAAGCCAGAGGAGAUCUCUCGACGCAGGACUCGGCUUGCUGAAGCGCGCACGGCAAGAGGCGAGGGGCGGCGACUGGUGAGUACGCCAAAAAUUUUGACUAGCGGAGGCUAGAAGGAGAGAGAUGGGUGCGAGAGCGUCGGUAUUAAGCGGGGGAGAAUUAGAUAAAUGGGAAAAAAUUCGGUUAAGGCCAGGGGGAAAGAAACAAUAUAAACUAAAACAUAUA

Scale: median log2 Kdimer over the changes at a position; positive = changes inhibit dimerization, negative = changes enhance it.
One numbering serves 1G, 2G and 3G.
A position is written with its base.

G310 gave 3G uncapped high-salt 0.00; 3G capped high-salt -0.02.
A311 gave 3G uncapped high-salt 0.42; 3G capped high-salt 0.43.
C312 (domain SL3) gave 3G uncapped high-salt 0.28; 3G capped high-salt 0.31.
U313 (domain SL3) gave 3G uncapped high-salt 0.92; 3G capped high-salt 0.69.
A314 (domain SL3) gave 3G uncapped high-salt 0.27; 3G capped high-salt 0.18.
G315 (domain SL3) gave 3G uncapped high-salt 0.28; 3G capped high-salt 0.17.
C316 (domain SL3) gave 3G uncapped high-salt 0.07; 3G capped high-salt 0.06.
G317 (domain SL3) gave 3G uncapped high-salt 0.15; 3G capped high-salt 0.04.
G318 (domain SL3) gave 3G uncapped high-salt 0.03; 3G capped high-salt 0.10.
A319 (domain SL3) gave 3G uncapped high-salt 0.07; 3G capped high-salt 0.09.
G320 (domain SL3) gave 3G uncapped high-salt -0.02; 3G capped high-salt -0.08.
G321 (domain SL3) gave 3G uncapped high-salt 0.43; 3G capped high-salt 0.37.
C322 (domain SL3) gave 3G uncapped high-salt 0.34; 3G capped high-salt 0.22.
U323 (domain SL3) gave 3G uncapped high-salt 0.64; 3G capped high-salt 0.26.
A324 (domain SL3) gave 3G uncapped high-salt 0.43; 3G capped high-salt 0.48.
G325 (domain SL3) gave 3G uncapped high-salt 0.41; 3G capped high-salt 0.44.
A326 gave 3G uncapped high-salt -0.01; 3G capped high-salt 0.06.
A327 gave 3G uncapped high-salt 0.06; 3G capped high-salt 0.08.
G328 gave 3G uncapped high-salt -0.02; 3G capped high-salt 0.06.
G329 gave 3G uncapped high-salt 0.28; 3G capped high-salt 0.22.
A330 gave 3G uncapped high-salt 0.15; 3G capped high-salt 0.15.
G331 gave 3G uncapped high-salt 0.19; 3G capped high-salt -0.22.
A332 gave 3G uncapped high-salt 0.06; 3G capped high-salt 0.35.
G333 (domain AUG) gave 3G uncapped high-salt -0.08; 3G capped high-salt -0.02.
A334 (domain AUG) gave 3G uncapped high-salt 0.23; 3G capped high-salt 0.02.
G335 (domain AUG) gave 3G uncapped high-salt -0.04; 3G capped high-salt 0.06.
A336 (domain AUG) gave 3G uncapped high-salt 0.00; 3G capped high-salt 0.14.
U337 (domain AUG) gave 3G uncapped high-salt 0.22; 3G capped high-salt 0.11.
G338 (domain AUG) gave 3G uncapped high-salt 0.21; 3G capped high-salt 0.04.
G339 (domain AUG) gave 3G uncapped high-salt 0.17; 3G capped high-salt 0.14.
G340 (domain AUG) gave 3G uncapped high-salt 0.04; 3G capped high-salt 0.15.
U341 (domain AUG) gave 3G uncapped high-salt 0.18; 3G capped high-salt 0.17.
G342 (domain AUG) gave 3G uncapped high-salt 0.30; 3G capped high-salt 0.17.
C343 (domain AUG) gave 3G uncapped high-salt 0.06; 3G capped high-salt 0.13.
G344 (domain AUG) gave 3G uncapped high-salt 0.02; 3G capped high-salt -0.01.
A345 gave 3G uncapped high-salt 0.25; 3G capped high-salt 0.14.
G346 gave 3G uncapped high-salt 0.14; 3G capped high-salt 0.03.
A347 gave 3G uncapped high-salt 0.51; 3G capped high-salt 0.53.
G348 gave 3G uncapped high-salt -0.33; 3G capped high-salt -0.29.
C349 gave 3G uncapped high-salt -0.12; 3G capped high-salt -0.18.
G350 gave 3G uncapped high-salt -0.03; 3G capped high-salt 0.00.

Extract of 4 entries:

position	domain	3G uncapped high-salt	3G capped high-salt
G320	SL3	-0.02	-0.08
G344	AUG	0.02	-0.01
A324	SL3	0.43	0.48
G348	none	-0.33	-0.29